Laboratory results: PubChem BioAssay AID504621 (Broad Institute, 2011)
This is a selection; strong and weak results do not stand in their true shares. Some salts and complexes are drawn in separate pieces, as the source files them; their charges need not balance. The source made the active and inactive calls.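 Rule for the calls: active = every replicate shows inhibition above about 80%, whatever the replicate mean (limit read from the data); inconclusive = mean inhibition reaches the set limit but some replicate falls short; inactive = the rest.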

experiment: reduced ATP signal of yeast carrying P. falciparum Hsp90 – S. cerevisiae, BacTiter-Glo luminescence, single point, set 2, antimalarial PfHsp90 inhibitor project, primary screen (AID 504621);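 note: yeast relying on Plasmodium falciparum Hsp90 in place of its own; 0% = DMSO neutral controls and 100% = 20 µM radicicol positive controls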; conditions: S. cerevisiae expressing PfHsp90, growth, 48 h, at 9.4 µM, stronger effect = higher value, yeast lacking PDR1 and PDR3 efflux regulators

| Compound | inhibition |
| --- | --- |
| CP(=O)(Nc1ccc(Cl)cc1)Oc1ccc(F)cc1 (stereo unspecified) | inactive: -14.9% |
| COc1ccccc1OP(C)(=O)Nc1ccccc1Br (stereo unspecified) | inactive: -5.98% |
| CC(C)(C)c1ccc(OP(C)(=O)O)cc1 | inactive: 6.77% |
| CN(C)C(=O)c1c([N+](=O)[O-])cc([N+](=O)[O-])cc1[N+](=O)[O-] | inactive: -17.9% |
| CCN(CC)CC(O)COC(=O)C(O)(c1ccccc1)C1CCCCC1 (stereo unspecified) | inactive: -3.79% |
| CCc1ccc(OP(C)(=O)Nc2cccnc2)cc1 (stereo unspecified) | inactive: 2.1% |
| CP(=O)(Oc1ccccc1)N1CCOC1=O (stereo unspecified) | inactive: 9.14% |
| O=C(OCCCN1CCCC1)C(O)(c1ccccc1)C1CCCCC1 (stereo unspecified) | inactive: 6.93% |
| COc1ccccc1OP(C)(=O)Nc1c(C)n(C)n(-c2ccccc2)c1=O (stereo unspecified) | inactive: -4.41% |
| CP(=O)(OC12CC3CC(CC(C3)C1)C2)OC12CC3CC(CC(C3)C1)C2 | inactive: -12.3% |
| CCOC(=O)c1ccc(NP(C)(=O)Oc2ccc(Cl)cc2)cc1 (stereo unspecified) | inactive: -56.6% |
| CCCCCCCCCCCCCCCC1C[N+](C)(C)CCOP(C)(=O)O1 (stereo unspecified) | inactive: 18.5% |
| CP(=O)(Nc1ccc(Cl)cc1Cl)Oc1ccccc1 (stereo unspecified) | inactive: -6.7% |
| CP(=O)(OCCOc1ccccc1)OCCOc1ccccc1 | inactive: 21.8% |
| Cc1cc(C)cc(OP(C)(=O)Nc2cccc(C(F)(F)F)c2)c1 (stereo unspecified) | inactive: 0.332% |
| O=C1C(O)=C([N+](=O)[O-])C(=O)C(O)=C1[N+](=O)[O-] | inactive: -2.69% |
| COc1ccc(OP(C)(=O)Nc2ccccc2Br)cc1 (stereo unspecified) | inactive: 13.8% |
| COc1ccccc1OP(C)(=O)Nc1ccc(C)c(C)c1 (stereo unspecified) | inactive: 0.288% |
| Cc1c(NP(C)(=O)Oc2ccc(C(C)C)cc2)c(=O)n(-c2ccccc2)n1C (stereo unspecified) | inactive: 13.2% |
| O=[N+]([O-])c1cc([N+](=O)[O-])c(Nc2ccccn2)c([N+](=O)[O-])c1 | inactive: -1.85% |
| CCc1ccc(OP(C)(=O)O)cc1 | inactive: 9.63% |

| Compound | inhibition |
| --- | --- |
| CP(=O)(Nc1ccccn1)Oc1ccccc1 (stereo unspecified) | inactive: 9.58% |
| COc1ccccc1OP(C)(=O)Nc1ccc(Br)cc1 (stereo unspecified) | inactive: 7.94% |
| CN(C)CCOC(=O)C(O)(c1ccccc1)C1CCCC1 (stereo unspecified) | inactive: 3.86% |
| COc1ccc(OP(C)(=O)Nc2ccccn2)cc1 (stereo unspecified) | inactive: -8.01% |
| O=C(OCCN1CCN(CCOCc2ccccc2)CC1)C(O)(c1ccccc1)c1ccccc1 | inactive: 1.09% |
| O=C(OC1CN2CCC1CC2)c1ccc([N+](=O)[O-])cc1 (stereo unspecified) | inactive: 9.96% |
| COc1ccc2c(c1O)-c1c(O)c(OC)cc3c1[C@H](C2)[N+](C)(C)CC3.O=[N+]([O-])c1cc([N+](=O)[O-])c([O-])c([N+](=O)[O-])c1[O-] | inactive: 1.27% |
| CC(C)c1ccc(OP(C)(=O)Nc2ccc(SC(F)(F)F)cc2)cc1 (stereo unspecified) | inactive: 15.7% |
| CCN(CC)CCCOC(=O)C(O)(c1ccccc1)C1CCCCC1 (stereo unspecified) | inactive: 20.7% |
| Cc1c([N+](=O)[O-])cc([N+](=O)[O-])c(Br)c1[N+](=O)[O-] | inactive: -9.9% |
| CCCCCOc1ccc(NP(C)(=O)Oc2ccc(Cl)cc2Cl)cc1 (stereo unspecified) | inactive: -6.43% |
| O=[N+]([O-])c1cc([N+](=O)[O-])c(OC2CCCCC2O)c([N+](=O)[O-])c1 (stereo unspecified) | inactive: 22.4% |
| CP(=O)(Nc1ccccc1)Oc1ccc(F)cc1 (stereo unspecified) | inactive: 13.1% |
| COc1ccc(OP(C)(=O)Nc2ccc(SC(F)(F)F)cc2)cc1 (stereo unspecified) | inactive: -2.57% |
| CCOC(=O)c1ccc(NP(C)(=O)Oc2ccc(F)cc2)cc1 (stereo unspecified) | inactive: -14.6% |
| Cc1cc(-c2cccc3ccccc23)c(C)cn1.O=[N+]([O-])c1cc([N+](=O)[O-])c(O)c([N+](=O)[O-])c1 | inactive: 21% |
| O=[N+]([O-])c1cc([N+](=O)[O-])c(NCC2CCS(=O)(=O)C2)c([N+](=O)[O-])c1 (stereo unspecified) | inactive: -18.3% |
| O=[N+]([O-])c1ccc(OP2(=O)COCCO2)cc1 (stereo unspecified) | inactive: 3.85% |
| Cc1c(C(c2ccc3c(c2)OCO3)c2c(C)n(C)n(-c3ccccc3)c2=O)c(=O)n(-c2ccccc2)n1C.O=[N+]([O-])c1cc([N+](=O)[O-])c(O)c([N+](=O)[O-])c1 | inactive: -4.61% |
| COc1ccc(NP(C)(=O)Oc2ccccc2OC)cc1 (stereo unspecified) | inactive: -17.2% |
